Publication PMC11538452 (Nature Communications, 2024)

Tests used:
[1] = target: T1, pTag_(9aa-)KRAS_(G12D) peptide (synthetic peptide: tetanus toxin pTag + …, chimera)
T1 chain: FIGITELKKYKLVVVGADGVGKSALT

pTag9aa-E7_(44-62) = target: T2, pTag9aa-E7_(44-62) (synthetic peptide: tetanus toxin pTag + …, chimera)
T2 chain: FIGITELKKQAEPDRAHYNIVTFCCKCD

pTag9aa-pp65_(489-510) = target: T3, pTag9aa-pp65_(489-510) (synthetic peptide: tetanus toxin pTag + …, chimera)
T3 chain: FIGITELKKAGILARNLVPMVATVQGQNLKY

pTag9aa-OVA_(323-339) = target: T4, pTag9aa-OVA_(323-339) (synthetic peptide: tetanus toxin pTag + …, chimera)
T4 chain: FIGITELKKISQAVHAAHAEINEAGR

pTag9aa-gp100_(20-39) = target: T5, pTag9aa-gp100_(20-39) (synthetic peptide: tetanus toxin pTag + …, chimera)
T5 chain: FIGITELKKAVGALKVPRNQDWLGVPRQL

[2] = target: T6, pTag_(9aa-)KRAS_(G12V) peptide (synthetic peptide: tetanus toxin pTag + …, chimera)
T6 chain: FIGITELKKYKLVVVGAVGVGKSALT

Measured: binding result

B1: BiA9*2_HF (antibody, V domains shown)
VH: QVQLVQSGAEVKKPGASVKVSCKASGFNIKDFNIHWVRQAPGQGLEWIGRIDPENGDAEYVPKFQGRVTMTRDTSTSTVYMELSSLRSEDTAVYYCTTGSYDLDVEYWGQGTLVTVSS
VL: DIQMTQSPSSLSASVGDRVTITCHASQNINVWLSWYQQKPGKAPKLLIYKASTLHTGVPSRFSGSGSGTDFTLTISSLQPEDFATYYCQQGQSYPLTFGQGTKLEIK
binds: [1] | pTag9aa-E7_(44-62) | pTag9aa-pp65_(489-510) | pTag9aa-OVA_(323-339) | pTag9aa-gp100_(20-39) | [2]
